# Molecular target: Modulator of drug activity A (Escherichia coli O157:H7) (UniProt Q8X6S1)
# Test: IC50 ratio for NR-positive and NR-negative cell lines
# Format: functional
compound,measurement,value
O=[N+]([O-])c1cnc(N(CCCl)CCCl)s1,Ratio,> 5

# Source: ChEMBL document CHEMBL1129997 (J Med Chem, 1997)
